Results as given in article PMC3845358 (Journal of immunology (Baltimore, Md. : 1950), 2013).

System: C57BL6 mice challenged with H1N1 (A/PR/8/34)
Assay: H1N1 influenza pneumonia model
Details: mouse, in vivo

## c1ccc(-c2ccc(CNCCNCc3ccc(-c4ccccn4)cc3)cc2)nc1 [BC-1215]
  lung resistance: decreased lung resistance
